Source: patent US6939854B2 (priority 2000, dated 2005)
*: point of attachment. Boc = CC(C)(C)OC(=O)*; OtBu = CC(C)(C)O*

Assay: general procedure: solution-phase peptide synthesis; DCC/HOBt; N-hydroxysuccinimide ester; PyAOP/DIEA; EDCI/HOAt
Conditions: coupling step

Substance | step yield
H-Asp-Glu-Val-Val-Pro-(1R)-1-amino-3-(4-trifluoromethyl)phenylpropylboronic acid (+)-pinanediol ester | 16%
(2-pyrazinecarbonyl)-Val-Val-Hyp(OBzl)-(1R)-1-amino-3-(4-trifluoromethyl)phenylpropylboronic acid (+)-pinanediol ester | 45%
H-Asp-Glu-Val-Val-Pro-(1R)-1-amino-3-(2,5-dimethyl)phenylpropylboronic acid (+)-pinanediol ester | 8%
Boc-D(OtBu)E(OtBu)VVP-OH | 82%
H-Asp-Glu-Val-Val-Pro-(1R)-1-amino-3-(2,4-dimethyl)phenylpropylboronic acid (+)-pinanediol ester | 17%

Same assay, conditions: late stage modification step

Substance | step yield
H-Asp-Glu-Val-Val-Pro-(1R)-1-amino-3-phenylpropylboronic acid (+)-pinanediol ester | 100%
H-Asp-Glu-Val-Val-Pro-(1R)-1-amino-5-methylhexylboronic acid (+)-pinanediol ester | 7.5%
